This is a selection; strong and weak results do not stand in their true shares. The source made the active and inactive calls. No stated cut-off is given here; in the data, active means z-score below about -3; inactive means the rest.
assay: inhibitors of measles virus growth in cells, primary screen, measles RdRp inhibitor project, cell-based, single point, HTS (AID 745); conditions: infected Vero cells, GFP fluorescence, 64 h; stronger effect = lower value

Row | Structure (SMILES) | z-score
1 | CCCOc1ccc(NP(C)(=O)Oc2ccc(Cl)cc2)cc1 (stereo unspecified) | inactive: -0.61
2 | COc1cccc(OP(=O)(Nc2ccccn2)Oc2cccc(OC)c2)c1 | inactive: -0.43
3 | Cc1cc(C)cc(OP(C)(=O)Nc2ccccn2)c1 (stereo unspecified) | inactive: -0.38
4 | COP(=O)(OC)C(NC(=O)c1ccc(C)cc1)=C(Cl)Cl | inactive: -0.05
5 | O=C(COc1ccc(F)cc1)OC1CN2CCC1CC2 (stereo unspecified) | inactive: 0.84
6 | CP(=O)(Nc1ccc(Cl)cc1)Oc1ccc(F)cc1 (stereo unspecified) | inactive: -0.26
7 | Cn1cc([N+](=O)[O-])nc1[N+](=O)[O-] | inactive: -0.34
8 | CCOP(=S)(NCC(C)C)OCC | inactive: -0.21
9 | CC(CNC(=O)C(C)([N+](=O)[O-])[N+](=O)[O-])([N+](=O)[O-])[N+](=O)[O-] | inactive: -0.65
10 | COc1ccccc1OP(=O)(Nc1ccccn1)Oc1ccccc1OC | inactive: -0.37
11 | Cc1cc(C)cc(OP(C)(=O)Nc2cccc(Cl)c2C)c1 (stereo unspecified) | inactive: -0.58
